Source: PMC11091879, “Inhibitors of the Thioesterase Activity of Mycobacterium tuberculosis Pks13 Discovered Using DNA-Encoded Chemical Library Screening” (ACS Infectious Diseases, 2024)
Where two headings read alike, the source gives them in different places.

By UniProt entry, the sequences of proteins in these tests, tags left out. Residues count along the entry.
UniProt I6X8D2, 1451-1733 limits assumed: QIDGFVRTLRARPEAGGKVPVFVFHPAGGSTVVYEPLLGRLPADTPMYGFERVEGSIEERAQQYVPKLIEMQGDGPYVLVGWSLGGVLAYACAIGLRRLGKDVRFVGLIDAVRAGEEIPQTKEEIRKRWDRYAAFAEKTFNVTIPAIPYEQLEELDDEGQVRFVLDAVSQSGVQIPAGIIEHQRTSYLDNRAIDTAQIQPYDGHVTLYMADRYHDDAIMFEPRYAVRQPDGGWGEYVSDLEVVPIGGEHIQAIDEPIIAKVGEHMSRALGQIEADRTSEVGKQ

How the values were obtained:
Pks13-TE = Pks13-TE (Mycobacterium tuberculosis, UniProt I6X8D2); experiment: TAMRA-FP affinity probe competition binding assay (fluorescence polarization); details: assay not given
Procedure: The competition binding assay was used to assess compound biochemical activity. ActivX TAMRA-FP Serine Hydrolase Probe was purchased from ThermoFisher. Covalent binding of the probe to Pks13-TE was used to read fluorescence polarization and set up the assay based on that signal.[38] The assay was done in all-black 384-well plates in a total volume of 25 μL. Pks13-TE in 100 mM Na phosphate buffer at pH 7.4 with 1.6 mM CHAPS at final concentration of 2 μM was preincubated with compounds for 10 min at RT, then TAMRA fluorescent probe was added to a final concentration of 80 nM, mixed and incubated for 40 min, followed by measuring fluorescence polarization signal at excitation 540 nm and emission of 590 nm on Clariostar BMG Plate reader. Percent inhibition for the dose-response plots was calculated using 2% final DMSO as a negative control and 20 μM TAM16 as a positive control.

WT H37Rv = experiment: MIC determination, wild-type Mtb H37Rv; format: cell-based, Mycobacterium tuberculosis; details: for WT H37Rv MIC: Table S5, series 3

SMILES	IC50 (Pks13-TE; Table S5, series 3) [nM]	WT H37Rv MIC (WT H37Rv) [µM]	IC50 (Pks13-TE; read-out: enzyme potency / IC50) [nM]	activity against Mtb growth (WT H37Rv)
CCC(C)(C)c1ccc(S(=O)(=O)N(C)[C@H](CCc2nc(N(C)C)no2)Cc2c[nH]c3ccccc23)cc1	580	> 125		
Cc1noc(CC[C@H](Cc2ccccc2)NS(=O)(=O)c2ccc(Cl)cc2)n1	16900	> 125		
CCC(C)(C)c1ccc(S(=O)(=O)N[C@H](CCc2nc(N(C)C)no2)Cc2c[nH]c3ccccc23)cc1	1980	> 125	2000	not active against Mtb
CCC(C)(C)c1ccc(S(=O)(=O)N[C@H](CCc2nc(C)no2)Cc2ccccc2)cc1	780	> 125		
CCC(C)(C)c1ccc(S(=O)(=O)N[C@@H](Cc2ccccc2)[C@@H](O)Cc2nc(C)no2)cc1	730	> 125		
CCC(C)(C)c1ccc(S(=O)(=O)N[C@H](CCc2nc(C)no2)Cc2c[nH]c3ccccc23)cc1	890	> 250		
CCC(C)(C)c1ccc(S(=O)(=O)N[C@H](CCc2nc(N(C)C)no2)Cc2ccccc2)cc1	5390			
CCC(C)(C)c1ccc(S(=O)(=O)N[C@@H](CCc2nc(N(C)C)no2)Cc2c[nH]c3ccccc23)cc1	> 20000	> 250		
Cc1noc(CC[C@H](Cc2ccccc2)NS(=O)(=O)c2ccc(C3CC3)cc2)n1	3840	> 125		
